Results deposited as PubChem BioAssay AID1259414 (Drosophila RNAi Screening Center, 2018)
Purpose: 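Host factors increasing or decreasing Wolbachia levels in cultured fly cells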 (primary screen). Cells: Drosophila JW18 cells infected with Wolbachia. Reagent: long dsRNA against Drosophila genes, 0.25 µg dsRNA per well of a 384-well plate. Timing: 5 days. Treatment: cells persistently infected with Wolbachia before knock-down; no added drug. Measurement: 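Automated imaging of bacterial rRNA staining divided by host cell count, reported as plate-normalised robust z-score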. Direction: Wolbachia per cell robust z: higher = more Wolbachia per host cell than the plate typical. Hit rule: 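Hit when robust z is 1.5 or more, or -1.5 or less, in at least two of three replicates; excludes dsRNAs with several or no targets, genes not expressed in JW18 and well A1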.
The screen tested about 24,000 reagents; this is an unselected part of those that have a named target and a result. Over the whole deposit, about 1,210 (5%) got an active call. 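Inactive calls also include excluded dsRNAs with several or no targets, genes unexpressed in JW18, and well A1, regardless of score.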 Names joined by + are all predicted targets of the reagent.

| target gene | amplicon | Wolbachia per cell robust z, rep 1 | Wolbachia per cell robust z, rep 2 | Wolbachia per cell robust z, rep 3 | Outcome |
| --- | --- | --- | --- | --- | --- |
| CG3216 | DRSC04347 | 1.9 | 0.955 | 1.86 | active |
| CG3216 | DRSC24945 | -0.468 | -0.633 | 0.0854 | inactive |
| Rala | DRSC18703 | -0.486 | 0.0447 | 0.454 | inactive |
| Rala | DRSC27866 | -0.391 | 0.975 | -0.508 | inactive |
| nAChRbeta1 | DRSC08097 | -1.93 | -0.518 | -0.265 | inactive |
| nAChRbeta1 | DRSC08728 | -7.24 | -8.81 | -1.29 | inactive |
| lncRNA:CR13130 | DRSC02226 | -0.271 | 1.49 | 0.949 | inactive |
| lncRNA:CR13130 | DRSC25021 | -0.475 | 0.88 | -1.92 | inactive |
| cag | DRSC07587 | -1.03 | -5.92 | -2.95 | active |
| cag | DRSC29225 | -0.431 | 0.44 | 0.292 | inactive |
| CG13999 | DRSC02331 | 0.0351 | -1.34 | 0.37 | inactive |
| CG13999 | DRSC29521 | -1.04 | 0.0107 | -2.15 | inactive |
| Gasp | DRSC12349 | -0.937 | -0.557 | 0.951 | inactive |
| Naa40 | DRSC16265 | -4.18 | 0.541 | 0.411 | inactive |
| Ir51a | DRSC06256 | -3.11 | 0.241 | 0.338 | inactive |
| CG34307 | DRSC38659 | 0.489 | 0.367 | 1.93 | inactive |
| NaCP60E | DRSC04307 | -1.49 | 0.0462 | -1.27 | inactive |
| NaCP60E | DRSC21351 | 0.616 | 0.993 | 0.745 | inactive |
| NaCP60E | DRSC26120 | 0.551 | -1.05 | -4.42 | inactive |
| CtIP | DRSC11785 | 0.424 | -0.29 | 0.872 | inactive |
| CtIP | DRSC29281 | -1.1 | -0.851 | -1.21 | inactive |
| H | DRSC16692 | 0.136 | 0.394 | -4.85 | inactive |
| H | DRSC26618 | 0.206 | 0.412 | 1.84 | inactive |
| Lar | DRSC01707 | -0.00248 | -0.0969 | -0.619 | inactive |
| Lar | DRSC03361 | 1.06 | -0.097 | 0.838 | inactive |
| CG4949 | DRSC19926 | -0.261 | 0.45 | -0.478 | inactive |
| CG15059 | DRSC19633 | 0.669 | 0.87 | 0.281 | inactive |
| CG15059 | DRSC28667 | -0.346 | -0.401 | 0.251 | inactive |
| CG15059 | DRSC39001 | 0.318 | 0.224 | 0.186 | inactive |
| CG15059 | DRSC40663 | 0.855 | 0.952 | -0.788 | inactive |

Taken from above.
Value of CtIP [DRSC11785] in “Outcome”: inactive
For “Wolbachia per cell robust z, rep 3”, CG3216 [DRSC24945] has 0.0854
CG4949 [DRSC19926], Wolbachia per cell robust z, rep 1 → -0.261

Further results:
| target gene | amplicon | Wolbachia per cell robust z, rep 1 | Wolbachia per cell robust z, rep 2 | Wolbachia per cell robust z, rep 3 | Outcome |
| --- | --- | --- | --- | --- | --- |
| CG14185 | DRSC10184 | 0.584 | -2.38 | 1.29 | inactive |
| Bfc | DRSC08623 | -0.409 | 0.119 | -1.08 | inactive |
| Ing5 | DRSC03188 | -0.706 | -1.04 | 0.0395 | inactive |
| Ing5 | DRSC25216 | 0.291 | -0.174 | 0.865 | inactive |
| CG32095 | DRSC22615 | -1.96 | 0.39 | -0.408 | inactive |
| CG43178 + CG43171 + CG43201 | DRSC40541 | -1.06 | 0.0644 | 0.296 | inactive |
| CG3323 | DRSC18303 | 0.717 | -1.62 | -1.18 | inactive |
| Est-Q | DRSC11835 | 1 | 1.03 | -0.196 | inactive |
| CG13716 | DRSC08325 | 0.544 | -0.458 | 0.397 | inactive |
| CG13716 | DRSC22815 | 1.41 | -6.02 | 0.235 | inactive |
| CG13601 | DRSC14604 | -0.751 | -0.361 | 0.315 | inactive |
| Hrb98DE | DRSC16709 | -2.13 | -0.332 | 1.64 | inactive |
| Hrb98DE | DRSC24508 | 0.311 | -1.22 | -0.501 | inactive |
| mRpS11 | DRSC15732 | -0.651 | 0.422 | -8.31 | inactive |
| CG11841 | DRSC14399 | 0.823 | 1.07 | -0.609 | inactive |
| CG11841 | DRSC28256 | -0.483 | 0.351 | 0.812 | inactive |
